# In patent US20050124645A1, “Methods and compositions for increasing CD4lymphocyte immune responsiveness” (priority 1998, published 2005):
# Entries after “also recorded” stand apart in the source; their conditions may differ.
# Test system: JAK3
# Assay: JAK3 kinase activity (pSTAT5/STAT5 O.D. ratio) in CD4+ T lymphocytes CD4-ligated before anti-CD3 stimulation
# Type: cell-based, human
# Settings: 20 U/ml, FIGS. 11A, 11B
# Description: In this experiment, CD4^+ T cells were isolated and stimulated through TCR/CD3 with or without prior CD4 ligation as described in Example 1, and JAK3 kinase activity, indicated by phosphorylation of STATS, was determined.
# Briefly, purified CD4^+ T lymphocytes were stimulated through TCR/CD3 with or without prior CD4 ligation as described in Example 1.20 U/ml IL-2 was added to the half of the cultures, and JAK3 kinase activity was determined as described in Examples 8 and 9.
substance,measurement,value
"IL-2: cytokine which binds to receptors on T cells having γc; recombinant, R&D Systems",JAK3 kinase activity (pSTAT5 to STAT5 O.D. ratio) in CD4-ligated T lymphocytes,restores/increases; also recorded: increases JAK3 kinase activity
